Results as given in patent publication US20160009789A1.

Experiments:
[1] = target: 93TH057; assay: ELISA; deglycosylated
[2] = target: 93TH057 gp120; assay: SPR; deglycosylated

Deglycosylated VRC01
EC50 [1]: 0.048 µg/mL | Kd [2]: 2.48 nM
